Drawing on PubChem BioAssay AID585 (National Center for Advancing Translational Sciences (NCATS), 2007), this text covers activity change, negative = inhibition for ten compounds.

Protein sequences, listed by entry. Tags and fused reporters are not part of them.
UniProt P00811, whole entry: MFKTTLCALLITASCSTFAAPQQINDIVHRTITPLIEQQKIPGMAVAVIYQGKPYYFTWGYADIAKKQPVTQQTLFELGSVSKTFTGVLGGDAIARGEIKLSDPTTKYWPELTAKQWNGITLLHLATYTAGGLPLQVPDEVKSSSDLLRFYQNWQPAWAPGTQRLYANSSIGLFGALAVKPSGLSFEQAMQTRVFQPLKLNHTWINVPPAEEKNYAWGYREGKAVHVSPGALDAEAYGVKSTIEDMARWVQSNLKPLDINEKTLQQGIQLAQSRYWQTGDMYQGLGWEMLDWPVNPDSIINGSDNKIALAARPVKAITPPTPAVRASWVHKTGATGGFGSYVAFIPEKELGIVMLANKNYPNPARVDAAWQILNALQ

Only a part is listed here, and it is no random draw. Active and inactive are the calls of the source. Calls come from the whole dose curve.

The target of this experiment is Beta-lactamase (Escherichia coli (strain K12)) (UniProt P00811). Put plainly: Promiscuous and Specific Inhibitors of AmpC Beta-Lactamase (assay without detergent). Note: % of control where 0% means no effect. The settings on record: AmpC nitrocefin hydrolysis, absorbance 480 nm, no detergent; at 28.7 µM unless noted. On the procedure: NIH Molecular Libraries Screening Centers Network [MLSCN]
NIH Chemical Genomics Center [NCGC]
PI Name: Shoichet, Brian K.
This aggregation profiling approach exploits the sensitivity of aggregate formation to detergent. Inhibition of b-lactamase is measured in the presence and absence of 0.01% Triton X-100. See Pubchem assay "Promiscuous and Specific Inhibitors of AmpC Beta-Lactamase (assay with detergent)" for related screen. Compounds that inhibit only in the absence of detergent are considered likely promiscuous aggregators.
A screen of 1,030 compounds was performed in Brian Shoichet's lab in 96-well format. AmpC activity was measured by following the absorbance at 480 nm. Nitrocefin is a chromogenic substrate: while nitrocefin is yellow (lmax 390 nm), the product of its hydrolysis is red (lmax 486 nm, 17,000 M-1). AmpC beta lactamase was provided by Brian Shoichet and Brian Feng, UCSF.
NCGC Assay Protocol Summary:
20 mM phosphate buffer, pH 7.0
Triton X-100: No Detergent screen: 0.0001%, Detergent screen: 0.01%.
Buffer in columns 3 and 4 as negative control (no enzyme).
5.3 nM AmpC in columns 1, 2, 5-48. Titration of UCSF compound 9 control (from 10 mM, then 1:2) pin-transferred to column 2. Column 1 is neutral (100% activity).
Six uL of reagents were dispensed to 1536-well Greiner black clear bottom plates. Compounds and controls (23 nL) were transferred via Kalypsys PinTool. The plates were incubated for 15 min at room temperature, and then 2 uL of 800 uM solution of nitrocefin was added to start the reaction. The plates were immediately transferred to and read every 20 seconds for 4 min on ViewLux (Perkin-Elmer) High-throughput CCD imager using 480 nm absorbance protocol. During dispense, reagent bottles were kept submerged into 4 deg C water bath.
Keywords: NIH Roadmap, MLSCN, MLI, MLSMR, qHTS, NCGC, AmpC Beta-Lactamase, Aggregation.
With `Fc1ccccc1NC1CCN(Cc2ccccc2)CC1`, the activity change, negative = inhibition is inactive: -11.9%.
`CCC(CO)(C(=O)OC1CN2CCC1CC2)c1ccccc1` (stereo not given): the activity change, negative = inhibition was inactive: -12.4%.
In the case of `CCOc1ncccc1C(=O)NCC1(N2CCOCC2)CCCCC1`, the activity change, negative = inhibition was inactive: 30.5%.
In the case of `O=C(O)C1(Nc2ccccc2)CCN(Cc2ccccc2)CC1`, the activity change, negative = inhibition was inactive: -5.3% [at 5.75 µM].
In the case of `N/C(=N\O)c1c(N)no[n+]1[O-]`, the activity change, negative = inhibition is inactive: 7.8%.
For the compound `ClCCOP(OCCCl)OCCCl`, the activity change, negative = inhibition was inactive: -3.8%.
Consider `N#CC1(Nc2ccccc2)CCN(CCc2ccccc2)CC1`, for which the activity change, negative = inhibition was inactive: 19.8%.
For the compound `NC1CCCCC1.NP(=O)(O)N(CCCl)CCCl`, the activity change, negative = inhibition was inactive: -1.7% [at 5.75 µM].
As for `CCOP(=O)(Cl)Cl`, the figure is inactive: -7.8%.
`O=C(OC1CN2CCC1CC2)C1c2ccccc2Oc2ccccc21` (stereo not given): the activity change, negative = inhibition was inactive: 29.7%.
